Measurements reported in ChEMBL document CHEMBL2157983 (Bioorg Med Chem Lett, 2011).

Experiments:
[1] = test system: Trypanosoma brucei; test: Trypanocidal activity against of Trypanosoma brucei bloodstream trypomastigote forms assessed as inhibition of parasite growth
[2] = test system: Leishmania major; test: Trypanocidal activity against Leishmania major promastigote forms infected in sandfly gut assessed as inhibition of parasite growth

`O=C(OCc1ccc([N+](=O)[O-])cc1)N(CCCl)CCCl` was tested. Which IC50 [1] did it give?
Its IC50 is > 10 µM.

What about the IC50 [2] of the same compound?
The IC50 was 16.2 µM.
